Data as given in PubChem BioAssay AID624099 (ICCB-Longwood, 2012).

Purpose: 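Host factors E2 relies on to silence an HPV18 LCR reporter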 (primary screen)
System: human C33A cervical carcinoma cells (HPV-negative) stably expressing BPV1 E2 and an HPV18 LCR luciferase reporter
Knock-down reagent: siRNA pool against human genes, 40 nM
Duration: 72 h
Detection: 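Per-well luciferase luminescence, z-scored on each plate against the plate mean and SD with control wells left out, then averaged across three replicate plates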
Scale: mean z-score and z-score: higher = stronger reporter signal, weaker E2 silencing
Active means: 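Hit if mean z-score reaches 2 and two or more of three replicate z-scores also reach 2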
In all, the deposit lists about 21,000 reagents; shown is an unselected part. 497 of all reagents (2.4%) were called active. 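Higher z means weaker E2 silencing; only reporter increases were scored, and knock-downs that hurt cell survival may mask genuine repressor factors.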 Reagents against one gene are numbered here.

gene,reagent no.,mean z-score,"z-score, replicate A","z-score, replicate B","z-score, replicate C",activity call
MTG2 (mitochondrial ribosome associated GTPase 2),1,-0.6,-0.63,-0.59,-0.57,inactive
"ST6GALNAC1 (ST6 N-acetylgalactosaminide alpha-2,6-sialyltransferase 1)",1,-0.59,-0.55,-0.67,-0.56,inactive
ZNF8 (zinc finger protein 8),1,0.37,0.33,0.33,0.44,inactive
IKBKG,1,2.09,2.19,1.88,2.2,active
"PFKFB2 (6-phosphofructo-2-kinase/fructose-2,6-biphosphatase 2)",1,0.27,0.5,0.23,0.09,inactive
ARMCX5 (armadillo repeat containing X-linked 5),1,-0.49,-0.23,-0.79,-0.46,inactive
WSCD1 (WSC domain sialate O sulfotransferase 1),1,-2.82,-2.65,-3.01,-2.82,inactive
LOC402520 (retired record),1,-0.04,0.2,-0.12,-0.2,inactive
"WASH3P (WASP family homolog 3, pseudogene)",1,0.64,0.66,0.76,0.51,inactive
CLPB (ClpB family mitochondrial disaggregase),1,0.14,0.09,0.46,-0.12,inactive
DDIT4L (DNA damage inducible transcript 4 like),1,2.38,2.62,2.44,2.09,active
KRTAP8-1 (keratin associated protein 8-1),1,-0.45,-0.4,-0.26,-0.68,inactive
ACADM (acyl-CoA dehydrogenase medium chain),1,0.62,0.9,0.31,0.66,inactive
LOC401394 (retired record),1,0.1,0.15,0.06,0.08,inactive
WDR36 (WD repeat domain 36),1,0.02,0.17,0.18,-0.28,inactive
POLR3G (RNA polymerase III subunit G),1,0.32,0.39,0.27,0.28,inactive
LOC402463 (retired record),1,-0.76,-0.73,-0.92,-0.62,inactive
LOC402463 (retired record),2,-0.18,-0.2,-0.27,-0.06,inactive

Copied from the list.
For “mean z-score”, CLPB (ClpB family mitochondrial disaggregase) has 0.14
Value of WASH3P (WASP family homolog 3, pseudogene) in “z-score, replicate B”: 0.76
Value for PFKFB2 (6-phosphofructo-2-kinase/fructose-2,6-biphosphatase 2) in “activity call”: inactive

Next entries follow:
gene,reagent no.,mean z-score,"z-score, replicate A","z-score, replicate B","z-score, replicate C",activity call
H4C7 (H4 clustered histone 7),1,0.46,0.51,0.37,0.49,inactive
LOC389267 (retired record),1,0.85,1.75,-0.03,0.82,inactive
ERN2 (endoplasmic reticulum to nucleus signaling 2),1,0.05,0.09,-0.11,0.18,inactive
ERN2 (endoplasmic reticulum to nucleus signaling 2),2,1.1,0.95,1.34,1,inactive
FAM24A (family with sequence similarity 24 member A),1,-0.17,-0.28,-0.15,-0.07,inactive
"SPG21 (SPG21 abhydrolase domain containing, maspardin)",1,0.09,0.25,0.12,-0.08,inactive
RNF220 (ring finger protein 220),1,-0.17,-0.07,-0.07,-0.38,inactive
FOXP2 (forkhead box P2),1,-0.84,-0.95,-0.68,-0.89,inactive
ACSM2A (acyl-CoA synthetase medium chain family member 2A),1,2.59,2.42,2.72,2.64,active
ZNF775 (zinc finger protein 775),1,0.07,0.2,0.02,-0.01,inactive
PIEZO1,1,-1.88,-1.91,-1.9,-1.85,inactive
AQP12A (aquaporin 12A),1,-0.26,-0.25,-0.16,-0.37,inactive
"LCK (LCK proto-oncogene, Src family tyrosine kinase)",1,0.42,0.47,0.14,0.65,inactive
BIN1 (bridging integrator 1),1,0.03,0.44,-0.24,-0.13,inactive
OR51B5 (olfactory receptor family 51 subfamily B member 5),1,0.97,0.68,0.81,1.42,inactive
GABRR2 (gamma-aminobutyric acid type A receptor subunit rho2),1,-0.5,-0.33,-0.65,-0.52,inactive
SYCP2L (synaptonemal complex protein 2 like),1,1.05,0.7,1.12,1.34,inactive
APOBEC3D (apolipoprotein B mRNA editing enzyme catalytic subunit 3D),1,-0.02,0.13,0.08,-0.25,inactive
TARBP2 (TARBP2 subunit of RISC loading complex),1,-1.07,-1.08,-1.15,-0.98,inactive
ZNF215 (zinc finger protein 215),1,-0.21,-0.1,-0.33,-0.19,inactive
PDE4DIP (phosphodiesterase 4D interacting protein),1,0.22,-0.07,0.37,0.35,inactive
